Only a part is listed here, and it is no random draw. Calls of active or inactive are those of the source. The call rests on the fitted dose curve; in most records, active means well fitted falling curve with a large enough effect; inconclusive means small, poorly fitted or top-dose-only effect; inactive means no such curve, though single readings can be large or run the other way.
On the % scale 0 is the no-effect control and ±100 the full control effect.

This assay can be described thus: qHTS Assay for Inhibitors of the HIV-1 protein Vpr. Further: nearly all actives have a fitted effect of over 50% in size. Conditions: S. pombe RE007 Vpr strain, BacTiter-Glo ATP luminescence, 24 h; at 92.2 µM (top of the series) unless noted. (In general: In qHTS, concentration-response curves come from the screen itself.)
As to `CP(=O)(Nc1ccc(SC(F)(F)F)cc1)Oc1ccc(F)cc1` (centres undefined), the activity change, negative = less growth is inactive: -13.1%.

Regarding `O=P(Nc1nccs1)(c1ccccc1)c1ccccc1`, the activity change, negative = less growth is inactive: 6.27%.

For `CC(C)C(=O)NC(Sc1ccccc1)C(Cl)(Cl)Cl` (centres undefined), the activity change, negative = less growth was inactive: -10.1%.

For the compound `C(Cc1nn[nH]n1)Cc1nn[nH]n1`, the activity change, negative = less growth was inactive: 7.84%.

As to `Nc1ccc([As](=O)(O)c2ccc([N+](=O)[O-])cc2)cc1`, the activity change, negative = less growth is inactive: 1.02%.

Consider `Cc1c(C(c2ccc3c(c2)OCO3)c2c(C)n(C)n(-c3ccccc3)c2=O)c(=O)n(-c2ccccc2)n1C.O=[N+]([O-])c1cc([N+](=O)[O-])c(O)c([N+](=O)[O-])c1`, for which the activity change, negative = less growth was inactive: 18.6%.

In the case of `O=C(OC1CN2CCC1CC2)c1cccc(Cl)c1` (centres undefined), the activity change, negative = less growth was inactive: -3.97%.

With `O=[N+]([O-])c1ccc(OP2(=O)COCCO2)cc1` (centres undefined), the activity change, negative = less growth is inactive: 3.89%.

For the compound `O=[N+]([O-])c1ncn(CCn2cnc([N+](=O)[O-])n2)n1`, the activity change, negative = less growth is inactive: -0.952%.

For `O=[N+]([O-])c1ccc(O)c(/C=N/Nc2ccc([N+](=O)[O-])cc2[N+](=O)[O-])c1`, the activity change, negative = less growth was inactive: -8.6%.

`Cc1cc(-c2cccc3ccccc23)c(C)cn1.O=[N+]([O-])c1cc([N+](=O)[O-])c(O)c([N+](=O)[O-])c1`: the activity change, negative = less growth was inactive: -2.94%.

Turning to `O=[As](O)(c1ccccc1)c1ccc(O)cc1`, the activity change, negative = less growth was inactive: -3.48%.

Consider `C[C@H]1OP(=O)(Oc2ccccc2)[C@H](O)[C@H](O)[C@H]1N=[N+]=[N-]` (some centres undefined), for which the activity change, negative = less growth was inactive: -3.74%.

For the compound `O=P(Nc1nc2ccccc2s1)(c1ccccc1)c1ccccc1`, the activity change, negative = less growth was inactive: -10.4%.

In the case of `CN(C)CCOC(=O)C(O)(c1ccccc1)C1CCCCC1` (centres undefined), the activity change, negative = less growth is inactive: 1.12%.

Take `COc1ccc(NP(C)(=O)Oc2ccccc2OC)cc1` (centres undefined): the activity change, negative = less growth was inactive: 2.11%.

Regarding `COc1ccc(N)c([N+](=O)[O-])c1[N+](=O)[O-]`, the activity change, negative = less growth is inactive: 3.57%.

`COc1ccc(OP(C)(=O)Nc2cccc(Br)c2)cc1` (centres undefined): the activity change, negative = less growth was inactive: -2.94%.

For `O=P(Nc1ccccn1)(c1ccc(Br)cc1)c1ccc(Br)cc1`, the activity change, negative = less growth was inactive: 5.32%.

For the compound `Cc1ccc(OCC(=O)OC2CN3CCC2CC3)cc1` (centres undefined), the activity change, negative = less growth is inactive: -4.73%.

`NS(=O)(=O)c1cccc(NC(=O)COC(=O)C(O)(c2ccccc2)c2ccccc2)c1`: the activity change, negative = less growth is inactive: -11.9%.

For `O=P1(Nc2ccc(Br)cn2)COc2ccccc2OC1`, the activity change, negative = less growth is inactive: 8.9%.

On to `CCCOc1ccc(NP(C)(=O)Oc2ccc(Cl)cc2)cc1` (centres undefined), for which the activity change, negative = less growth is inactive: 2.7%.

As for `Nc1cccc([As](=O)(O)c2ccccc2)c1`, the activity change, negative = less growth is inactive: 3.31%.

As to `CP(=O)(Nc1ccc(SC(F)(F)F)cc1)Oc1ccccc1` (centres undefined), the activity change, negative = less growth was inactive: 6.05%.

With `CN1CCCCC1COC(=O)C1(O)c2ccccc2CCc2ccccc21` (centres undefined), the activity change, negative = less growth was inactive: -19.5%.

Take `COc1ccccc1OP(C)(=O)Nc1c(C)cccc1C` (centres undefined): the activity change, negative = less growth was inactive: 3.4%.

Regarding `O=P1(Nc2ncccn2)COc2ccccc2OC1`, the activity change, negative = less growth is inactive: -5.05%.

For the compound `CCCC1OP(=O)(Nc2ccccc2)OCC1CC` (centres undefined), the activity change, negative = less growth was inactive: 1.64%.

Turning to `O=C(/C=C/c1ccccc1)OC1CN2CCC1CC2` (centres undefined), the activity change, negative = less growth was inactive: -3.09%.

For `CC1=C2N=C(C=C3N=C(C(C)=C4[N-][C@@](C)([C@@H]5N=C1[C@](C)(CCC(=O)NC[C@@H](C)OP(=O)([O-])O[C@H]1[C@@H](O)[C@@H](n6cnc7cc(C)c(C)cc76)O[C@@H]1CO)[C@H]5CC(N)=O)[C@@](C)(CC(N)=O)[C@@H]4CCC(N)=O)[C@@](C)(CC(N)=O)[C@@H]3CCC(N)=O)C(C)(C)[C@@H]2CCC(N)=O.[C-]#N.[Co+3]`, the activity change, negative = less growth is inactive: -15.9%.

Turning to `CN(C)C1(CNC(=O)c2ccc(S(C)(=O)=O)cc2)CCCCC1`, the activity change, negative = less growth is inactive: -4.41%.

With `O=[N+]([O-])c1cc([N+](=O)[O-])c(Nc2nnnn2CCO)c([N+](=O)[O-])c1`, the activity change, negative = less growth is inactive: -3.85%.

`COc1cc(C2NCCC3(OCCO3)C2(C)C)cc(OC)c1OC.O=[N+]([O-])c1cc([N+](=O)[O-])c(O)c([N+](=O)[O-])c1` (centres undefined): the activity change, negative = less growth was inactive: -15.9%.

In the case of `Cc1ccc(C(=O)OC2CN3CCC2CC3)cc1` (centres undefined), the activity change, negative = less growth is inactive: -4.23%.

Turning to `CC1CCC(C(C)C)C(OP(=O)(Nc2ccccn2)c2ccccc2)C1` (centres undefined), the activity change, negative = less growth was inactive: 15.6%.

In the case of `Cc1nn(-c2ccccc2)c2c1P(=O)(N1CCOCC1)N(C)C(c1ccccc1)=N2` (centres undefined), the activity change, negative = less growth is inactive: 12.6%.

With `CC1(CBr)Cn2c(nc3ccccc3c2=O)S1` (centres undefined), the activity change, negative = less growth was inactive: 20.9%.

Turning to `Cc1ccc(S(=O)(=O)N(CCCN)CCCc2c(C)nc(N)[nH]c2=O)cc1.O=[N+]([O-])c1cc([N+](=O)[O-])c(O)c([N+](=O)[O-])c1`, the activity change, negative = less growth was inactive: 23% [at 18.4 µM].

`CC(C)/C=N\N=C(\N)N[N+](=O)[O-]`: the activity change, negative = less growth is inactive: -5.39%.

As for `COc1ccccc1CNC(=O)COC(=O)C(O)(c1ccccc1)c1ccccc1`, the activity change, negative = less growth is inactive: 2.24%.

For `O=[N+]([O-])c1cc([N+](=O)[O-])c(-c2cnn(-c3ccccc3)c2)c([N+](=O)[O-])c1`, the activity change, negative = less growth is inactive: -12.5%.

Take `CC(C)(C)C(=O)NC(Sc1ncccn1)C(Cl)(Cl)Cl` (centres undefined): the activity change, negative = less growth was inactive: -5.94%.

For the compound `Clc1n[nH]nc1-c1nn[nH][15n]1`, the activity change, negative = less growth was inactive: -13.3% [at 3.69 µM].

On to `O=P1(N(CCCl)CCCl)NCCC(C(F)(F)F)O1` (centres undefined), for which the activity change, negative = less growth was inactive: -16.8%.

In the case of `CN(Cc1cccnc1)C(=O)COc1ccc(Cl)c(Cl)c1.O=[N+]([O-])c1cc([N+](=O)[O-])c(O)c([N+](=O)[O-])c1`, the activity change, negative = less growth is inactive: 9.42%.

For `CN(CCCl)Cc1cc(Cl)c(NC2=NCCN2)c(Cl)c1`, the activity change, negative = less growth was inactive: 2.89% [at 18.4 µM].

Consider `O=[N+]([O-])c1cc([N+](=O)[O-])c(-n2nnc3ccccc32)c([N+](=O)[O-])c1`, for which the activity change, negative = less growth was inactive: 31.2%.

With `Nc1ccc(CCCCOc2ccccc2)cc1.O=[N+]([O-])c1cc([N+](=O)[O-])c(O)c([N+](=O)[O-])c1`, the activity change, negative = less growth is inactive: -11.8% [at 18.4 µM].

Turning to `CCOP(=O)(NC(=NC(C)c1ccccc1)NC(C)c1ccccc1)OCC` (centres undefined), the activity change, negative = less growth was inactive: 13.4%.

Consider `CCC1=CC2Cc3nc4ccc(Cl)cc4c(N)c3C(C1)C2` (centres undefined), for which the activity change, negative = less growth was inactive: 8.24%.

For `O=P1(Nc2ccccn2)COc2ccccc2OC1`, the activity change, negative = less growth was inactive: -0.563%.

`O=C(O)C(O)c1ccc(N(CCCl)CCCl)cc1.c1ccncc1` (centres undefined): the activity change, negative = less growth was inactive: 6.19%.

`CCOP(=O)(Nc1cccc2ccccc12)OCC`: the activity change, negative = less growth was inactive: -24.8%.

As for `Cc1ccc(C)c(NP(C)(=O)Oc2ccccc2)c1` (centres undefined), the activity change, negative = less growth was inactive: 2.39%.

In the case of `CCCOP(=S)(Nc1nc(N)cc(=O)[nH]1)OCCC`, the activity change, negative = less growth is inactive: -3.91%.

With `Cc1cc(C)cc(OP(C)(=O)Nc2ccccn2)c1` (centres undefined), the activity change, negative = less growth is inactive: -9.27%.

As to `CP(=O)(Nc1cccc(Br)c1)Oc1ccccc1` (centres undefined), the activity change, negative = less growth was inactive: -4.88%.

Consider `CCOC(=O)c1ccc(NP(C)(=O)Oc2cc(C)cc(C)c2)cc1` (centres undefined), for which the activity change, negative = less growth is inactive: 16.5%.

As to `Cc1cc(C)cc(OP(C)(=O)Nc2ccc(C)cc2C)c1` (centres undefined), the activity change, negative = less growth is inactive: -8.33%.

For the compound `Cc1cccc(OCC(=O)OC2CN3CCC2CC3)c1` (centres undefined), the activity change, negative = less growth is inactive: 17.2%.

Turning to `O=[As](O)(c1cccc(O)c1)c1cccc(O)c1`, the activity change, negative = less growth was inactive: 6.48%.

`COc1ccccc1OP(C)(=O)Nc1cccc(Br)c1` (centres undefined): the activity change, negative = less growth is inactive: -1.43%.

In the case of `CS(=O)(=O)c1ccc(Cl)c(NC(=O)COC(=O)C(O)(c2ccccc2)c2ccccc2)c1`, the activity change, negative = less growth was inactive: -10.4%.

`O=[As](O)(O)c1cccnc1`: the activity change, negative = less growth was inactive: 6.56%.

`COc1cc(C(=O)NCC2(N3CCOCC3)CCCCC2)cc(Cl)c1OC(C)C`: the activity change, negative = less growth was inactive: -14.2%.

On to `O=C(OC1CN2CCC1CC2)c1ccc(Cl)cc1` (centres undefined), for which the activity change, negative = less growth is inactive: 9.64%.

On to `CN(C(=O)Cc1ccc(Cl)c(Cl)c1)[C@H]1CC[C@@]2(CCCO2)C[C@@H]1N1CCCC1`, for which the activity change, negative = less growth was inactive: 1.44% [at 18.4 µM].

With `O=[N+]([O-])c1ccc2c(c1)nnn2O`, the activity change, negative = less growth is inactive: -1.82%.

Consider `CN(C(=O)Cc1ccccc1)[C@@H]1CC[C@]2(CCCO2)C[C@H]1N1CCCC1`, for which the activity change, negative = less growth is inactive: 10.7% [at 18.4 µM].

`CCOP1(=S)c2c(C)nn(CCC#N)c2N=C(c2ccc(F)cc2)N1C` (centres undefined): the activity change, negative = less growth is inactive: -4.87%.

With `N#CCCN(C(=O)COC(=O)C(O)(c1ccccc1)c1ccccc1)c1ccc(F)cc1`, the activity change, negative = less growth was inactive: 0.678%.

Regarding `NC(=O)Nc1ccc([As](=O)(O)O)cc1`, the activity change, negative = less growth was inactive: -11.5%.

Turning to `O=C(O)COc1ccc([As](=O)(O)O)cc1[N+](=O)[O-]`, the activity change, negative = less growth is inactive: 15.5%.

For the compound `Nc1ccccc1[As](=O)(O)c1ccccc1`, the activity change, negative = less growth was inactive: -18.3%.

On to `CS(=O)(=O)c1cc([N+](=O)[O-])c2no[n+]([O-])c2c1`, for which the activity change, negative = less growth was inactive: -9.54%.

In the case of `O=P(Nc1nccs1)(Oc1ccccc1)Oc1ccccc1`, the activity change, negative = less growth is inactive: 25.7%.

As for `CCOP1(=S)c2c(C)nn(CCC#N)c2N=C(c2ccccc2F)N1C` (centres undefined), the activity change, negative = less growth is inactive: -0.73%.

Consider `COc1ccc(OP(C)(=O)Nc2cccc(F)c2)cc1` (centres undefined), for which the activity change, negative = less growth was inactive: -0.509%.

Regarding `O=[N+]([O-])c1cc([N+](=O)[O-])c(-c2ccn[nH]2)s1`, the activity change, negative = less growth is inactive: -11.2%.

Take `CC(C)NC(=O)NP(=O)(Oc1ccccc1)Oc1ccccc1`: the activity change, negative = less growth is inactive: 12.3%.

As for `COc1ccccc1OP(C)(=O)Nc1cc(Cl)ccc1C` (centres undefined), the activity change, negative = less growth is inactive: -2.45%.

Take `CCN(CC)C(=S)SC(NC=O)C(Cl)(Cl)Cl` (centres undefined): the activity change, negative = less growth is inactive: 1.36%.

In the case of `O=C(OC1CN2CCC1CC2)c1cccc2[nH]cnc12` (centres undefined), the activity change, negative = less growth is inactive: -9.78%.

Consider `COC(=O)C1(C)COP(=O)(N2CCCCCC2)OC1` (centres undefined), for which the activity change, negative = less growth is inactive: 0.246%.

As for `CC(C)c1ccc(OP(=O)(Nc2ccccn2)Oc2ccccc2F)cc1` (centres undefined), the activity change, negative = less growth is inactive: 7.15%.

For the compound `COc1ccccc1OP(C)(=O)Nc1ccc(C)cc1` (centres undefined), the activity change, negative = less growth is inactive: 0.863%.

For the compound `ClCCSc1nnc(-c2cccnc2)o1`, the activity change, negative = less growth was inactive: -3.39%.

With `CCOC(=O)c1ccc(NP(C)(=O)Oc2ccccc2)cc1` (centres undefined), the activity change, negative = less growth was inactive: 15%.

The values above are taken from PubChem BioAssay AID651644 (National Center for Advancing Translational Sciences (NCATS), 2012).
